Results of unrelated studies side by side (data: NIAID ChemDB).

Common to all: whole-cell or culture tests; organism: Hepatitis C virus; read-out: EC50

Two numbers with a dash give a range or band.

| smiles | cells | strain or isolate | method | value |
|---|---|---|---|---|
| CC(C)(c1ccc(F)cc1)c1nc(-c2cn(Cc3ccc(C(F)(F)F)cc3)c3cc(N4CCS(=O)(=O)CC4)c(F)cc3c2=O)no1 |  | 1b | replicon | <0.5 µM |
| CNC(=O)c1c(-c2ccc(F)cc2)oc2cc(NC(C)=O)c(OC)cc12 | Huh7 |  | replicon | <1 µM |
| O=C(CI)Nc1cccc(-c2cc(-c3c(Cl)cccc3Cl)no2)c1 |  |  | replicon | ≤10 µM |
| CC1CCC(C(=O)N(CC2CCOCC2)c2cc(-c3ccc(-c4cn5ccccc5n4)cc3)sc2C(=O)O)CC1 |  | 1b | replicon / ELISA | 0.005–0.0099 µM |
| CNC(=O)c1c(-c2ccc(F)cc2)oc2cc(N(C)S(C)(=O)=O)c(OC)cc12 | Huh7 |  | replicon | <1 µM |
| Cc1ccc(-n2ncc3c(Nc4ccc5[nH]ccc5c4)ncnc32)c(C)c1 | HUH 9B |  | replicon | 1–10 µM |
| COCCOC(=O)N1CCN(c2nc(N)nc3ncc(-c4ccc(OC)c(OC)c4)nc23)CC1 | Huh7 | HCV replicon | replicon | <0.3 µM |
| C=CC1C[C@]1(NC(=O)[C@@H]1C[C@@H](Oc2cc(-c3ccccc3)nc3cc(OC)ccc23)CN1C(=O)[C@@H](NC(=O)OC(C)(C)C)C(C)(C)C)C(=O)NS(=O)(=O)c1nc(NC(C)=O)sc1C | Huh7 | BMS |  | 1–10 µM |
| CC(=O)NCCCCC(c1ccccc1)c1nc(-c2cn(Cc3ccc(Cl)cc3)c3cc(N4CCN(C)CC4)c(F)cc3c2=O)no1 |  | 1b | replicon | <10 µM |
| O=C1N/C(=N\S(=O)(=O)c2ccc(Cl)cc2)S/C1=C\c1ccccc1Cl | Huh 5-2 | 1b | luciferase | 48.9 µM |
| CNC(=O)c1c(-c2ccc(F)cc2)oc2cc(-c3nccs3)c(OC(C)C)cc12 | Huh7 |  | replicon | <10 µM |
| C=CC1C[C@]1(NC(=O)[C@@H]1C[C@@H](Oc2cc(-c3ccccc3)nc3cc(OC)ccc23)CN1C(=O)[C@@H](NC(=O)OC(C)(C)C)C(C)(C)C)C(=O)NS(=O)(=O)c1cc([N+](=O)[O-])c(Cl)s1 | Huh7 | BMS |  | 0.1–1 µM |
| Cc1ccc(-n2ncc3c(NC(=O)Nc4ccc(C)c(C)c4)ncnc32)c(C)c1 | HUH 9B |  | replicon | <1 µM |
| Cc1ccc(Cl)c(-c2cc(-c3cccc(NC(=O)C(Cl)Cl)c3)on2)c1F |  |  | replicon | ≤10 µM |
| O=C1N/C(=N\S(=O)(=O)c2ccc(Cl)cc2)S/C1=C\c1cccnc1 | Huh 5-2 | 1b | luciferase | 64.11 µM |
| Clc1ccc(-n2ncc3c(NCCc4c[nH]c5ccccc45)ncnc32)c(Cl)c1 | HUH 9B |  | replicon | 1–10 µM |
| CC1CCC(C(=O)N(c2cc(-c3ccc(-c4cn5ccccc5n4)cc3)sc2C(=O)O)C2CCOCC2)CC1 |  | 1a | replicon / ELISA | 0.01–0.049 µM |
| CC(Nc1s[nH]c(=O)c1C#N)c1ccccc1 | Huh7 |  | replicon | 10–50 µM |
| O=C(Nc1cccc(-c2cc(-c3c(C4CCCC4)cccc3C(F)(F)F)no2)c1)C(Cl)Cl |  |  | replicon | ≤10 µM |
| CNC(=O)c1c(-c2ccco2)oc2ccc(OC)cc12 | Huh7 |  | replicon | <30 µM |
| O=C(c1cc2c(C(F)(F)F)cc(-c3ccccc3)nc2s1)N1CCOCC1 | Huh7 |  | luciferase / replicon | 4.5 µM |
| COc1ccc(-c2cnc3nc(N)nc(N4CCN(CC(=O)N5CCCC5)CC4)c3n2)cc1OC | Huh7 | HCV replicon | replicon | <0.3 µM |
| CN(C(=O)C(Cl)Cl)c1cccc(-c2cc(-c3c(Cl)cccc3Cl)no2)c1 |  |  | replicon | ≤10 µM |
| COc1ccc(-c2cnc3nc(N)nc(N4CCN(CC(=O)N(C)c5ccccc5)CC4)c3n2)cc1OC | Huh7 | HCV replicon | replicon | <0.3 µM |
| Cc1ccc(Nc2ncnc3c2cnn3Cc2ccccc2)c(C)c1 | HUH 9B |  | replicon | 1–10 µM |
| CC1CCC(C(=O)N(c2cc(-c3ccc(-c4cc5ncccn5n4)cc3)sc2C(=O)O)C2CCOC2)CC1 |  | 1b | replicon / ELISA | 0.005–0.0099 µM |
| N#Cc1c(Nc2ccc(Br)c(C(F)(F)F)c2)s[nH]c1=O | Huh7 |  | replicon | 1–10 µM |
| COc1ccc(/C=C2\S/C(=N/S(=O)(=O)c3ccc(F)cc3)NC2=O)cc1 | Huh 5-2 | 1b | luciferase | 74.74 µM |
| N#Cc1c(Nc2ccc(Br)nc2)s[nH]c1=O | Huh7 |  | replicon | 10–50 µM |
| COc1ccc(-c2cnc3nc(N)nc(N4CCN(CCC#N)CC4)c3n2)cc1OC | Huh7 | HCV replicon | replicon | <0.3 µM |
| CCOC(=O)Cc1cn(Cc2c(CC)sc3ccc(Cl)cc23)c2cc(-c3cc([N+](=O)[O-])cc([N+](=O)[O-])c3)ccc12 |  |  |  | >50 µM |
| COCCN(C(=O)C1CCC(C)CC1)c1cc(-c2ccc(-c3cc4nccc(N)n4n3)cc2)sc1C(=O)O |  | 1a | replicon / ELISA | 0.001–0.0049 µM |
| CCN(CC)C(=O)c1sc2nc(-c3ccccc3)cc(C(F)(F)F)c2c1N | Huh7 |  | MTT | 3.5 µM |
| CN1CCN(c2cc3c(cc2F)c(=O)c(-c2noc(Cc4ccc(F)cc4)n2)cn3CCN2CCOCC2)CC1 |  | 1b | replicon | >10 µM |
| COc1ccccc1N1CCN(C(=O)CNc2ccc(S(=O)(=O)/N=C3\NC(=O)/C(=C/c4ccccc4Cl)S3)cc2)CC1 | Huh 5-2 | 1b | luciferase | 22.68 µM |
| C=CC1C[C@]1(NC(=O)[C@@H]1C[C@@H](Oc2cc(-c3ccccc3)nc3cc(OC)ccc23)CN1C(=O)[C@@H](NC(=O)OC(C)(C)C)C(C)(C)C)C(=O)NS(=O)(=O)c1cccs1 | Huh7 | BMS |  | <0.1 µM |
| CCCCCOc1ccc(N(C(=O)c2cc(C)on2)c2nc(-c3nc4ccccc4s3)cs2)cc1C(F)(F)F |  |  |  | <1 µM |
| O=C(Nc1ccc(S(=O)(=O)N2CCOCC2)c(-c2cc(-c3c(Cl)cccc3Cl)no2)c1)C(Cl)Cl |  |  | replicon | ≤10 µM |
| C=CC1C[C@]1(NC(=O)[C@@H]1C[C@@H](Oc2cc(-c3ccccc3)nc3cc(OC)ccc23)CN1C(=O)[C@@H](NC(=O)OC(C)(C)C)C(C)(C)C)C(=O)NS(=O)(=O)c1nnc(NC(C)=O)s1 | Huh7 | BMS |  | 1–10 µM |
| Cc1ccc(-n2ncc3c(Nc4ccc(S(N)(=O)=O)cc4)ncnc32)c(C)c1 | HUH 9B |  | replicon | <1 µM |
| C[C@@H]1CN(c2cc3c(cc2F)c(=O)c(-c2noc(C(C)(C)c4ccc(F)cc4)n2)cn3Cc2ccc(C(F)(F)F)cc2)C[C@H](C)N1 |  | 1b | replicon | <0.5 µM |
| N#Cc1c(Nc2ccc(S(=O)(=O)Nc3ccccc3)cc2)s[nH]c1=O | Huh7 |  | replicon | >50 µM |
| COc1ccc(-c2cnc3nc(N)nc(N4CCN(Cc5ccncc5)CC4)c3n2)cc1OC | Huh7 | HCV replicon | replicon | 0.3–1 µM |
| Nc1ccnc2cc(-c3ccc(-c4cc(N(C(=O)C5CCC(C(F)(F)F)CC5)C5CCOCC5)c(C(=O)O)s4)cc3)nn12 |  | 1b | replicon / ELISA | 0.005–0.0099 µM |
| CNC(=O)c1c(-c2ccc(F)cc2)oc2cc(N(Cc3c(C)noc3C)S(C)(=O)=O)c(OC(C)C)cc12 | Huh7 |  | replicon | <10 µM |
| N#Cc1c(Nc2ccc(Br)cc2)s[nH]c1=O | Huh7 |  | replicon | <1 µM |
| COc1ccc(-c2cnc3nc(N)nc(N4CCN(C(=O)/C=C/c5ccccc5)CC4)c3n2)cc1OC | Huh7 | HCV replicon | replicon | <0.3 µM |
| O=C(O)c1sc(-c2ccc(-c3cc4ncccn4n3)cc2)cc1N(C(=O)C1CCC(C(F)(F)F)CC1)C1CCOCC1 |  | 1b | replicon / ELISA | 0.01–0.049 µM |
| CCCCCOc1ccc(N(C(=O)C(C)OC(C)=O)c2nc(-c3cccnc3)cs2)cc1C(F)(F)F |  |  |  | <1 µM |
| C=CC1C[C@]1(NC(=O)[C@@H]1C[C@@H](Oc2cc(-c3ccccc3)nc3cc(OC)ccc23)CN1C(=O)[C@@H](NC(=O)OC(C)(C)C)C(C)(C)C)C(=O)NS(=O)(=O)c1ccc(Cl)s1 | Huh7 | BMS |  | 0.1–1 µM |
| Cc1ccccc1Cc1nc(-c2cn(CC3CCCCC3)c3cc(N4CCN(C)CC4)c(F)cc3c2=O)no1 |  | 1b | replicon | >10 µM |
| COc1ccc(-c2cnc3nc(N)nc(N4CCN(CC5CCCO5)CC4)c3n2)cc1OC | Huh7 | HCV replicon | replicon | 0.3–1 µM |
| Fc1ccc(-n2ncc3c(NCCc4c[nH]c5ccccc45)ncnc32)c(F)c1 | HUH 9B |  | replicon | 1–10 µM |
| CC1CCC(C(=O)N(CC2CCOCC2)c2cc(-c3ccc(-c4cc5ncccc5o4)cc3)sc2C(=O)O)CC1 |  | 1a | replicon / ELISA | 0.001–0.0049 µM |
| CC(Nc1nc(NCC(F)(F)F)c2nc(-c3ccc(F)cc3)cnc2n1)c1ccc(S(N)(=O)=O)cc1 | Huh7 | HCV replicon | replicon | <0.3 µM |
| Nc1c(C(=O)N2CCn3c(nnc3C(F)(F)F)C2)sc2nc(-c3ccccc3)cc(C(F)(F)F)c12 | Huh7 |  | MTT | 3.3 µM |
| CNC(=O)c1c(-c2ccc(F)cc2)oc2cc(-c3ccoc3)c(OC(C)C)cc12 | Huh7 |  | replicon | <10 µM |
| C=CC1C[C@]1(NC(=O)[C@@H]1C[C@@H](Oc2cc(-c3ccccc3)nc3cc(OC)ccc23)CN1C(=O)[C@@H](NC(=O)OC(C)(C)C)C(C)(C)C)C(=O)NS(=O)(=O)c1ccc(Sc2ccc(Cl)cc2)s1 | Huh7 | BMS |  | 1–10 µM |
| CCOCCN(C(=O)C1CCC(C)CC1)c1cc(-c2ccc(-c3cc4ncccc4o3)cc2)sc1C(=O)O |  | 1b | replicon / ELISA | 0.005–0.0099 µM |
| CCCCCOc1ccc(N(C(N)=O)c2nc(-c3cccnc3)cs2)cc1F |  |  |  | <1 µM |
| CN1CCN(c2cc3c(cc2F)c(=O)c(-c2noc(Cc4cccnc4)n2)cn3Cc2ccc(Cl)cc2)CC1 |  | 1b | replicon | <2 µM |
| CNC(=O)c1c(-c2ccc(F)cc2)oc2cc(-c3ncc[nH]3)c(OC)cc12 | Huh7 |  | replicon | <1 µM |
| CCCCCCCCc1ccc(N(C(=O)C(=O)OC)c2nc(-c3cccnc3)cs2)cc1 |  |  |  | <1 µM |
| CCCCc1ccc(Nc2ncnc3c2cnn3-c2ccc(F)cc2F)cc1 | HUH 9B |  | replicon | 1–10 µM |
| O=C(CCl)Nc1cccc(-c2cc(-c3c(Cl)cccc3Cl)no2)c1 |  |  | replicon | ≤10 µM |

Neighbouring rows are from separate reports. An empty or dashed field is not shown. ECn is the concentration giving n% inhibition of infection, replication or growth.